Compound potency records, mixed from different reports. Data source: NIAID ChemDB in PubChem.

All rows: host cell toxicity; cell line: C8166; read by: MTT; read-out: CC50

Conditions beyond the fields shown may differ between rows. CCn is the concentration with n% toxicity to the cells.

SMILES	result
CN(C)CCCc1cccnc1CN(C)Cc1nc2ccccc2[nH]1	>10 µM
CC1=C[C@H]2[C@@]3(O)[C@H](C)[C@@H](OC(=O)CCCCC4SCC5NC(=O)NC54)[C@]4(O)[C@H]([C@@H]3C=C(CO)C[C@]2(O)C1=O)C4(C)C	>200 µM
CC(C)c1cccnc1CN(CCCCN)Cc1nc2nccc(N3CCN(C)CC3)c2[nH]1	>10 µM
C/C(=N\NC(=O)c1ccccc1)c1cn(S(=O)(=O)c2ccccc2)c2ccccc12	>200 µg/mL
CC/C=C\C/C=C\C/C=C\C/C=C\C/C=C\CCCC(=O)OCC1=C[C@H]2[C@@H]3C(C)(C)[C@]3(OC(=O)CCC/C=C\C/C=C\C/C=C\C/C=C\C/C=C\CC)[C@H](O)[C@@H](C)[C@]2(O)[C@@H]2C=C(C)C(=O)[C@@]2(O)C1	86.42 µM
CN(Cc1ncccc1/C=C/C#N)Cc1nc2ccccc2n1Cc1ccccc1	>10 µM
C=C(C)[C@@]12OC3(C)O[C@@H]1[C@@H]1[C@H](O)[C@@](C)(O)[C@@H](O)[C@@]4(O)[C@@H](C[C@H](C)[C@@H]4OC(C)=O)[C@@]1(O3)[C@H](C)[C@@H]2OCc1ccccc1	0.1176 µM
C/C(=N\NC(=O)c1ccccc1)c1cn(S(=O)(=O)c2ccc(Cl)cc2)c2cc(C)ccc12	96.71 µg/mL
CN(Cc1ncccc1Br)Cc1nc2ccccc2n1CCC#N	>10 µM
C=C(C)C1Cc2cc3ccc(=O)oc3cc2O1	636.1 µM
Cc1cccnc1CN(C)Cc1nc2ccccc2n1C(=O)OC(C)(C)C	>10 µM
CCCCCCCCC(=O)O[C@@]12[C@H](OC(=O)/C=C/c3ccc(F)cc3)[C@@H](C)[C@@]3(O)[C@@H](C=C(CO)C[C@]4(O)C(=O)C(C)=C[C@@H]34)[C@@H]1C2(C)C	34.24 µM
C=C(C)[C@@]1(OCc2ccccc2)[C@H](OC(C)=O)[C@@H]2[C@H](OC(C)=O)[C@@]3(C)O[C@@]4(C(C[C@H](C)[C@@H]4O)[C@@]2(O)[C@H](C)[C@@H]1OC(C)=O)[C@@H]3OC(C)=O	>0.2976 µM
COc1cc(OC)c2ccc(=O)oc2c1	417.8 µM
CCCCCCCCC(=O)O[C@@]12[C@H](OC(=O)/C=C/c3ccc(Cl)cc3)[C@@H](C)[C@@]3(O)[C@@H](C=C(CO)C[C@]4(O)C(=O)C(C)=C[C@@H]34)[C@@H]1C2(C)C	33.5 µM
CN1CCN(c2ccnc3nc(CN(CCCCN)Cc4ncccc4-c4ccccc4)[nH]c23)CC1	>10 µM
C=C(C)[C@@]12OC3(c4ccccc4)O[C@@H]1[C@@H]1[C@@H]4O[C@]4(C)[C@@H](O)[C@]4(O)C(=O)C(C)=C[C@H]4[C@@]1(O3)[C@H](C)[C@@H]2OCc1ccccc1	0.0233 µM
CCCCCCCCCCC(=O)O[C@@H]1[C@@H](C)[C@@]2(O)[C@@H](C=C(CO)C[C@]3(O)C(=O)C(C)=C[C@@H]23)[C@@H]2C(C)(C)[C@]12OC(=O)CCCCCCCCCC	>200 µM
C/C(=N\NC(=O)c1ccccc1)c1cn(S(=O)(=O)c2ccccc2)c2ccc([N+](=O)[O-])cc12	125 µg/mL
CC1(C)OC2=CC(=O)C3C(=O)C=C(c4ccc(O)cc4)OC3C2=C(O)C1O	136.6 µM
C=C(C)[C@@]12OC3(c4ccccc4)O[C@@H]1[C@@H]1[C@H](OC(C)=O)[C@@]4(C)O[C@@]5([C@@H]4OCc4ccccc4)[C@@H](OC(C)=O)[C@@H](C)C[C@H]5[C@@]1(O)[C@H](C)[C@@H]2O3	>0.2967 µM
CC1=C[C@H]2[C@@]3(O)[C@H](C)[C@@H](OC(=O)CCCCCCCCCBr)[C@]4(OC(=O)CCCCCCCCCBr)[C@H]([C@@H]3C=C(CO)C[C@]2(O)C1=O)C4(C)C	26.2 µM
C=CC(C)(C)C1C2=C(C=CC(C)(C)O2)C(OC)=C2C=CC(=O)OC21	68.4 µM
COc1cc(/C=C/C(=O)O[C@@H]2[C@@H](C)[C@@]3(O)[C@@H](C=C(CO)C[C@]4(O)C(=O)C(C)=C[C@@H]34)[C@@H]3C(C)(C)[C@]23OC(C)=O)ccc1O	97.47 µM
C/C(=N\NC(=O)c1ccccc1)c1cn(S(=O)(=O)c2cccc([N+](=O)[O-])c2)c2ccccc12	>200 µg/mL

For reference, 2 entries again:

SMILES | result
C=C(C)[C@@]12OC3(c4ccccc4)O[C@@H]1[C@@H]1[C@H](OC(C)=O)[C@@]4(C)O[C@@]5([C@@H]4OCc4ccccc4)[C@@H](OC(C)=O)[C@@H](C)C[C@H]5[C@@]1(O)[C@H](C)[C@@H]2O3 | >0.2967 µM
CCCCCCCCCCC(=O)O[C@@H]1[C@@H](C)[C@@]2(O)[C@@H](C=C(CO)C[C@]3(O)C(=O)C(C)=C[C@@H]23)[C@@H]2C(C)(C)[C@]12OC(=O)CCCCCCCCCC | >200 µM